Results of unrelated studies side by side (data: NIAID ChemDB).

All rows: whole-cell or culture tests; organism: Herpes simplex virus 2

ECn: concentration that inhibits the pathogen or its effect by n%. Neighbouring rows are from separate reports. Two numbers with a dash give a range or band. Blank or dashed fields: not listed here.

smiles | strain or isolate | measure | cells | method | result
Nc1nc2c(ncn2[C@@H]2C[C@H](CO)[C@H]2CO)c(=O)[nH]1 | Curtis | EC50 | WI-38 | plaque count | 0.2–0.4 µM
Nc1nc2c(ncn2CCCCO)c(=O)[nH]1 | 91075 | EC50 | SIRC | plaque count | 1.5 µM
O=c1[nH]c(=O)n([C@H]2C[C@H](O)[C@@H](CO)O2)cc1CCCl | K979 | EC50 | HEP-2 | cytopathic effect | <3 µg/mL
COC(=O)CC(SCCO)n1cc(C)c(=O)[nH]c1=O |  | EC50 | HFF | cytopathic effect | >200 µM
O=c1c2ncn(COC(CO)CO)c2nc2[nH]c(-c3ccc(C(F)(F)F)cc3)cn12 | LYONS | EC50 | HEL | cytopathic effect | 9.6 µg/mL
Nc1ncnc2c1ncn2[C@@H]1C[C@H](CO)[C@@H](O)[C@@H]1O | G-FAC-C1 | EC50 | VERO | plaque count | 48 µM
Nc1nc2c(ncn2CCCC(CO)CO)c(=O)[nH]1 | B4327 | EC50 | VERO | plaque count | 7 µM
Nc1nc2c(ncn2COCCO)c(=O)[nH]1 | MS | EC50 | MRC-5 | cytopathic effect | 2.5 µg/mL
O=C(O[C@@H]1[C@@H](c2c(O)cc(O)c3c2O[C@H](c2cc(O)c(O)c(O)c2)[C@H](OC(=O)c2cc(O)c(O)c(O)c2)C3)c2c(O)cc(O)cc2O[C@@H]1c1cc(O)c(O)c(O)c1)c1cc(O)c(O)c(O)c1 | 196 | EC90 | VERO | plaque count | 2.7 µM
C=CCc1nc(C)n2c(=O)[nH]c(=S)[nH]c12 | G | EC50 | PRK | cytopathic effect | >40 µg/mL
Cc1cc([C@H]2C[C@H](O)[C@@H](CO)O2)c(F)cc1F | G | EC50 | E6SM | cytopathic effect | >400 µg/mL
Nc1nc2c(ncn2[C@@H]2C=C[C@H](CO)[C@@H](O)C2)c(=O)[nH]1 | G | EC50 | E6SM | cytopathic effect | 0.05 µg/mL
O=c1[nH]c(=O)n([C@H]2C[C@H](O)[C@@H](CO)O2)cc1CCCl | MS | EC50 | HFF | cytopathic effect | 0.38 µM
Nc1nc2c(ncn2C[C@]2(CO)C[C@H]2CO)c(=O)[nH]1 | UW-268 | EC50 | MRC-5 | plaque count | 0.18 µg/mL
OC[C@H]1O[C@H](c2cc(I)c(F)cc2F)C[C@@H]1O | 196 | EC50 | E6SM | cytopathic effect | >400 µg/mL
Cc1cn(C(CCO)OCCO)c(=O)[nH]c1=O |  | EC50 | HFF | cytopathic effect | >200 µM
Nc1nc(=O)n([C@@H]2O[C@H](CO)[C@@H](O)[C@@H]2F)cc1I | G-FAC-C1 | EC50 | VERO | plaque count | 15 µM
C=CCc1nc(C)n2c(=O)[nH]cnc12 | G | EC50 | PRK | cytopathic effect | >100 µg/mL
O=c1[nH]c(=O)n([C@H]2C[C@H](O)[C@@H](CO)O2)cc1/C=C/Br | K979 | EC50 | VERO | cytopathic effect | <30 µg/mL
Cc1ccc(Cc2nn(COC(CO)CO)c(=O)[nH]c2=O)cc1 |  | EC50 | HFF | cytopathic effect | >100 µM
CC[C@@]1(Cl)C(=O)NC(=O)N([C@H]2C[C@H](O)[C@@H](CO)O2)[C@H]1OC | MS | EC50 | HFF | cytopathic effect | >50 µM
O=c1[nH]c(=O)n([C@H]2C[C@H](O)[C@@H](CO)O2)cc1/C=C/Br | G | EC50 | E6SM | cytopathic effect | >80 µM
OC[C@H]1O[C@@H](c2cc(F)c(F)cc2F)C[C@@H]1O | LYONS | EC50 | E6SM | cytopathic effect | >400 µg/mL
Nc1nc2c(ncn2COC(CO)CO)c(=O)[nH]1 | G | EC50 | PRK | cytopathic effect | <0.1 µg/mL
Nc1nc2c(ncn2C[C@]2(CO)C[C@H]2CO)c(=O)[nH]1 |  | EC50 | VERO | cytopathic effect | 0.1–1 µM
Cc1cn([C@@H]2O[C@H](CO)[C@H]2CO)c(=O)[nH]c1=O | JEN | EC50 | HFF | plaque count | 0.5 µg/mL
CCCCC(C)(C)[C@H](O)/C=C/[C@H]1C=CC(=O)[C@@H]1CCCCCCC(=O)O | H210 | EC50 | VERO | hybridisation | 4.5 µg/mL
CC(=O)NC1C(O)OC(CO)C(O)C1OC1OC(C(=O)[O-])C(OC2OC(CO)C(O)C(OC3OC(C(=O)[O-])C(O)C(O)C3O)C2NC(C)=O)C(O)C1O.[Na+].[Na+] | LYONS | EC50 |  |  | >400 µg/mL
[N-]=[N+]=N[C@@H]1C[C@@H](CO)S[C@@H]1n1ccc(=O)[nH]c1=O |  | EC50 |  |  | >100 µg/mL
C[C@H]1[C@H](O)[C@@H](CO)O[C@H]1n1cc(I)c(=O)[nH]c1=O | G | EC50 | MRC-5 | plaque count | >61.27 µg/mL
OC[C@H]1O[C@@H](c2ccc(F)cc2F)C[C@@H]1O | LYONS | EC50 | E6SM | cytopathic effect | >400 µg/mL
CC(=O)OCCOCN1C(C)=CC(N)=[N+](c2ccccc2)S1(=O)=O | LYONS | EC50 | E6SM |  | >400 µg/mL
Cc1c(-c2ccc(F)cc2)[nH]c2nc3c(ncn3COCCO)c(=O)n12 | 196 | EC50 | HEL | cytopathic effect | 1.92 µg/mL
CC1=CC(=O)N(c2ccccc2)S(=O)(=O)N1COCCO | LYONS | EC50 | E6SM |  | >400 µg/mL
COc1ccc(Cc2nn(COCCO)c(=O)[nH]c2=O)cc1 |  | EC50 | HFF | cytopathic effect | >100 µM
NC(=S)c1cn(COCCO)c2ncnc(N)c12 | MS | EC50 | HFF | plaque count | 30 µM
NC1=CC(N)=NS(=O)(=O)N1COCCO | G | EC50 | E6SM |  | >400 µg/mL
Nc1nc2c(ncn2COCCO)c(=O)[nH]1 | 91075 (acyclovir-resistant) | EC50 | VERO | plaque count | 65 µM
CCCc1cn([C@H]2C[C@H](O)[C@@H](CO)O2)c(=O)[nH]c1=O | 196 | EC50 | PRK | cytopathic effect | 5.6 µg/mL
COC(=O)C[C@@H](SCCO)n1cnc2c(Cl)nc(N)nc21 |  | EC50 | HFF | cytopathic effect | >200 µM
CCCc1cn([C@H]2C[C@H](O)[C@@H](COP(=O)(O)O)O2)c(=O)[nH]c1=O | 196 | EC50 | PRK | cytopathic effect | 5 µg/mL
OC[C@H]1O[C@@H](c2cc(C(F)(F)F)c(F)cc2F)C[C@@H]1O | 196 | EC50 | E6SM | cytopathic effect | >400 µg/mL
Cn1cc(C(=O)NCc2ccc(Cl)cc2)c(=O)c2cc(CN3CCOCC3)ccc21 | MS-M1 | EC50 | VERO | plaque count | >20 µM
O=c1[nH]c(=O)n([C@@H]2O[C@H](CO)[C@@H](O)[C@@H]2F)cc1I | K979 | EC50 | HEP-2 | cytopathic effect | <0.1 µg/mL
O=c1[nH]c(=O)n([C@H]2C[C@H](O)[C@@H](CO)O2)cc1/C=C\Cl | LYONS | EC50 | PRK | cytopathic effect | 7 µg/mL
CC(=O)OCCOCN1C(=N)/C(=C(\C)O)C(N)=NS1(=O)=O | LYONS | EC50 | E6SM |  | >400 µg/mL
Cc1nc(CC(O)CO)c2nc[nH]c(=O)n12 | G | EC50 | PRK | cytopathic effect | >400 µg/mL
O=C(O)P(=O)(O)O | G-FAC-C1 | EC50 | VERO | plaque count | 18 µM
Cn1cc(C(=O)NCc2ccc(Cl)cc2)c(=O)c2cc(/C=C\CO)cc(F)c21 | MS-M1 | EC50 | VERO | plaque count | >20 µM
C[C@H]1[C@H](O)[C@@H](CO)O[C@H]1n1cc(I)c(N)nc1=O | G | EC50 | MRC-5 | plaque count | >100 µg/mL
CCOC(=O)C1=CN(COCCO)S(=O)(=O)NC1=O | G | EC50 | E6SM |  | >400 µg/mL
Nc1nc2c(ncn2/C=C2/CC2(CO)CO)c(=O)[nH]1 | MS | EC50 | HFF | plaque count | >380 µM
Nc1nc2c(ncn2C=C2CC2CO)c(=O)[nH]1 |  | EC50 | VERO | cytopathic effect | >100 µM
CC(=O)OC[C@H]1O[C@@H](n2cc(-c3cc(-c4ccc(C(C)(C)C)cc4)no3)c(=O)[nH]c2=O)CC[C@@H]1O |  | EC50 |  |  | 0.03 µg/mL
Nc1nc2c(ncn2CC(CO)CCO)c(=O)[nH]1 | 91075 (acyclovir-resistant) | EC50 | VERO | plaque count | ≥250 µM
OC[C@H]1O[C@H](c2cc(Br)c(F)cc2F)C[C@@H]1O | LYONS | EC50 | E6SM | cytopathic effect | >400 µg/mL
O=c1ccn([C@@H]2O[C@H](CO)[C@@H](O)[C@@H]2F)c(=O)[nH]1 | G-FAU-C2 | EC50 | VERO | plaque count | >200 µM
O=c1c2ncn(COCCO)c2nc2[nH]c(-c3ccccc3)c(Cc3ccc(F)cc3)n12 | LYONS | EC50 | HEL | cytopathic effect | >16 µg/mL
O=c1[nH]c(=O)n([C@H]2C[C@H](O)[C@@H](CO)O2)cc1/C=C/Br | G | EC50 | E6SM | cytopathic effect | >80 µg/mL
O=C(NCc1ccc(Cl)cc1)c1c[nH]c2ccc(C#CCO)cc2c1=O | 3 isolates | EC50 |  | plaque count | 16 µM
O=c1[nH]c(=O)n(COC(CO)CO)nc1Cc1ccc(O)cc1 |  | EC50 | HFF | cytopathic effect | >100 µM
COC(=O)[C@H](C)NP(=O)(OC[C@H]1O[C@@H](n2cc(/C=C/Br)c(=O)[nH]c2=O)C[C@@H]1O)Oc1ccccc1 | G | EC50 | E6SM | cytopathic effect | >48 µM
Cc1cn([C@@H]2O[C@H](CO)[C@@H](O)[C@@H]2O)c(=O)[nH]c1=O | MS | EC50 | HELF | cytopathic effect | 0.66 µg/mL
O=c1[nH]c(=O)n(COCCO)nc1Cc1ccc(O)cc1 |  | EC50 | HFF | cytopathic effect | >100 µM
CC1(C)C=C2[C@H]3CC[C@@H]4[C@@]5(C)CCC(=O)C(C)(C)[C@@H]5CC[C@@]4(C)[C@]3(C)CC[C@@]2(C(=O)O)CC1 | ITO-1262 | EC50 | VERO | plaque count | 5.8 µg/mL
Nc1nc(=O)n([C@H]2C[C@H](O)[C@@H](CO)O2)cc1/C=C\Cl | G | EC50 | PRK | cytopathic effect | 20 µg/mL
[N-]=[N+]=N[C@H]1C[C@H](CO)S[C@H]1n1ccc(N)nc1=O |  | EC50 |  |  | >100 µg/mL
OC[C@H]1O[C@@H](c2cc(Cl)c(F)cc2F)C[C@@H]1O | G | EC50 | E6SM | cytopathic effect | >400 µg/mL
Nc1ccn([C@H]2O[C@@H](CO)[C@H](O)[C@H]2F)c(=O)n1 | G-FMAU-C1 | EC50 | VERO | plaque count | 3.4 µM
Cc1cn([C@@H]2S[C@H](CO)C[C@H]2N=[N+]=[N-])c(=O)[nH]c1=O |  | EC50 |  |  | >100 µg/mL
O=c1c2ncn(COC(CO)CO)c2nc2[nH]c(-c3ccc(F)cc3)cn12 | G | EC50 | HEL | cytopathic effect | 1.92 µg/mL
Cc1cn([C@H]2S[C@@H](CO)C[C@@H]2N=[N+]=[N-])c(=O)[nH]c1=O |  | EC50 |  |  | >100 µg/mL
OC[C@H]1O[C@@H](c2cc(I)c(F)cc2F)C[C@@H]1O | 196 | EC50 | E6SM | cytopathic effect | >400 µg/mL
Nc1nc2c(ncn2[C@@H]2CO[C@H](CO)[C@@H](O)C2)c(=O)[nH]1 |  | EC50 | VERO | cytopathic effect | 0.1–1 µM
C/C(O)=C1\C(=N)N(COCCO)S(=O)(=O)N=C1N | LYONS | EC50 | E6SM |  | >400 µg/mL

Repeating the final 4 entries:

smiles | strain or isolate | measure | cells | method | result
Cc1cn([C@H]2S[C@@H](CO)C[C@@H]2N=[N+]=[N-])c(=O)[nH]c1=O |  | EC50 |  |  | >100 µg/mL
OC[C@H]1O[C@@H](c2cc(I)c(F)cc2F)C[C@@H]1O | 196 | EC50 | E6SM | cytopathic effect | >400 µg/mL
Nc1nc2c(ncn2[C@@H]2CO[C@H](CO)[C@@H](O)C2)c(=O)[nH]1 |  | EC50 | VERO | cytopathic effect | 0.1–1 µM
C/C(O)=C1\C(=N)N(COCCO)S(=O)(=O)N=C1N | LYONS | EC50 | E6SM |  | >400 µg/mL